What was measured:
rSmTAChE = rSmTAChE (Schistosoma mansoni, UniProt A0A3Q0KMM5); assay: IC50 determination with rSmTAChE (Ellman, 384-well); conditions: tested form: dibromide
[1] = molecular target: tegumental AChE activity in live schistosomula parasites (Schistosoma mansoni, UniProt A0A3Q0KMM5); assay: Inhibitor impact on tegumental AChE activity of live schistosomula; conditions: read-out: IC50 Schistosomula, tested form: dibromide

By UniProt entry, the sequences of proteins in these tests, tags left out. Residues count along the entry.
UniProt A0A3Q0KMM5, 27-661 limits assumed: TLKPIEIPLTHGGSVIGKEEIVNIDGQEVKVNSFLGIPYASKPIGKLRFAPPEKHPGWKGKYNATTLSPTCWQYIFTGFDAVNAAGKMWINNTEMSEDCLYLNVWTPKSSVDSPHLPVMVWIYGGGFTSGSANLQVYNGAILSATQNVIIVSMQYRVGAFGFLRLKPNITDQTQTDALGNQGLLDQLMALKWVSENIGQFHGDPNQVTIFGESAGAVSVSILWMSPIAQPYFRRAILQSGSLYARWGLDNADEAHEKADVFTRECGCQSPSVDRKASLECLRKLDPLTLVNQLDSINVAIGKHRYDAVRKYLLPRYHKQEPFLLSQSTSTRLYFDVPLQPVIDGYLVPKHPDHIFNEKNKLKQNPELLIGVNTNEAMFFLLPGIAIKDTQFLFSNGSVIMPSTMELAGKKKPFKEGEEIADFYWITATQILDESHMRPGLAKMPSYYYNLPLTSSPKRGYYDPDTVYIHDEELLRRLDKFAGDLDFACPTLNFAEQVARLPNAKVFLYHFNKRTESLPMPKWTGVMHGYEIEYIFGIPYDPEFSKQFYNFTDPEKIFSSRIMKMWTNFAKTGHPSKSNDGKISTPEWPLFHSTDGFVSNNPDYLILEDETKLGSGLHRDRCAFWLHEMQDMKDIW
UniProt A0A3Q0KMM5, 26-668 limits assumed: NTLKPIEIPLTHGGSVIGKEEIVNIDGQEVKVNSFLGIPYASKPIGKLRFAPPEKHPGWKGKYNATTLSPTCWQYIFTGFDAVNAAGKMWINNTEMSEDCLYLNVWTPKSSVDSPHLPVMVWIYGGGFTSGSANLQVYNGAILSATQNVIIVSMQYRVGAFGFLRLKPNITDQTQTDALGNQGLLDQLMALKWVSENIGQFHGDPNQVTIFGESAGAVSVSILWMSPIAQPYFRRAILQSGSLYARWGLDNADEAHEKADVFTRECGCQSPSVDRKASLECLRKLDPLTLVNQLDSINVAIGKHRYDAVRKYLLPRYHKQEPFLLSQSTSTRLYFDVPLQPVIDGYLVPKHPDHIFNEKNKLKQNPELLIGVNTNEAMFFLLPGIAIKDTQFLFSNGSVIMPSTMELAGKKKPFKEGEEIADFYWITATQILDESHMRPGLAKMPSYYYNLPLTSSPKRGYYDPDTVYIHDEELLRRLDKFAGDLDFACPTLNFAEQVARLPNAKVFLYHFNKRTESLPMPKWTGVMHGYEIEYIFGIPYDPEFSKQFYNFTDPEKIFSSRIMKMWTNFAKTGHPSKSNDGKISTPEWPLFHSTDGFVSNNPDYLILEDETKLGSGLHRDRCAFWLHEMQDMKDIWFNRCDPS

In the case of `C=CC[N+](C)(C)c1ccc(CCC(=O)CCc2ccc([N+](C)(C)CC=C)cc2)cc1`, the “inhibition of rSmTAChE (in words)” value (rSmTAChE; increasing concentrations of inhibitor) is reported as “selective inhibition”, the IC50 (rSmTAChE; read-out: IC50 rSmTAChE, rSmTAChE) is reported as 101 µM and the IC50 [1] is reported as 32 µM.

Source: publication PMC11900278, “Expression, Characterization and Selective Chemical Inhibition of Essential Schistosoma mansoni Tegumental Acetylcholinesterase (SmTAChE)” (2025)
